What all share (assay): pseudovirus neutralization IC50; higher = weaker neutralization
Assay [1] addresses SARS-CoV-2 Omicron BA.1 spike pseudovirus. The protocol:
(§1)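 Single-round VSV luciferase pseudovirus mixed with antibody dilutions for 1 h and put on Huh-7 cells for about a day; IC50 from the dose curve.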

The target in assay [2] is SARS-CoV-2 Omicron BA.2 spike pseudovirus. The protocol:
as §1

Assay [3] concerns the target SARS-CoV-2 Omicron BA.2.75 spike pseudovirus. On the procedure:
as §1

Assay [4] concerns the target SARS-CoV-2 Omicron BA.5 spike pseudovirus. On the procedure:
as §1

Assay [5] has as its target SARS-CoV-2 Omicron BQ.1.1 spike pseudovirus. On the procedure:
as §1

In assay [6] the target is SARS-CoV-2 Omicron XBB spike pseudovirus. The protocol: as §1
For assay [7], the target named is SARS-CoV-2 early D614G spike pseudovirus. On the procedure:
as §1

The values that follow come from the supplement of paper PMC9931576.

Numbering of substitutions follows the chain as printed. Human monoclonal antibodies against the spike receptor-binding domain (heavy:light variable regions). IC50 against pseudoviruses bearing the spike of naturally observed variants; lower = stronger; >10 µg/ml means not reached at the top dose. No active / inactive call. The stated detection limit is 0.0005 µg/ml; values near or below 0.001 µg/ml lie at the floor of the assay.

B1: BD57-045 (protein)
chain 1: EVQLVESGGGLVQPGRSLRLSCAASGFNFHDYAMHWVRQVPGKGLEWVSSISWDSRSIDIADSVKGRFTISRDNGKNSLYLQMNSLSAEDTAFYYCVKSRGYETLTGADYFEYWGQGTLVSVSS
chain 2: EIVLTQSPGTLSLSPGERATLSCRASQSVTSTFLAWYQQKPGQAPRLLIYDASSRATGIPDRFSGSGSGTDFTLTISRLEPEDFAVYYCQQYGSSPSITFGQGTRLDIK
Regarding B1, the “pseudovirus neutralization IC50” value in assay [1] is 0.001 µg/mL; in assay [2], 0.00063 µg/mL; in assay [3], 0.00109 µg/mL; in assay [4], 0.000716 µg/mL; in assay [5], 4.04 µg/mL; in assay [6] it was over 10 µg/mL. In addition, in assay [7], the “pseudovirus neutralization IC50” value came out at 0.001 µg/mL.

B2: BD57-012 (protein)
chain 1: QMQLVQSGPEVKKPGTSVKVSCKASGFTFTSSAVQWVRQARGQRLEWIGWIVVGSGNTNYAQKFQERVTISRDESTSTAYMELSSLRSEDTAVYYCAAPYCTGGTCNDGFDIWGQGTLVTVSS
chain 2: EIVLTQSPGTLSLSPGERATLSCRASQSVTSSYLAWYQQKPGQAPRVLIYGASSRATGIPDRFSGSGSGTDFTLTISRLEPEDFAVYYCQQYGRSPWTFGQGTKVEIK
With B2, the “pseudovirus neutralization IC50” value in assay [1] is 0.00601 µg/mL; in assay [2], 0.00476 µg/mL; in assay [3] it was 0.000932 µg/mL; in assay [4] it was 5.92 µg/mL; in assay [5], over 10 µg/mL; in assay [6] it was over 10 µg/mL. Moreover, in assay [7], the “pseudovirus neutralization IC50” value stood at 0.00129 µg/mL.

B3: BD57-022 (protein)
chain 1: QMQLVQSGPEVKKPGTSVKVSCKASGFTFSSSAVQWVRQARGQRLEWIGWIVVGSGNTNYTQKFQERVTITRDMSTSTAYMELNSLRSEDTAVYYCAAPSCSRTICFDGFDMWGQGTMVTVSS
chain 2: B2 chain 2 with T10S, T30R, V47L, A85V, Y88F, K104R
As to B3, the “pseudovirus neutralization IC50” value in assay [1] was 0.0463 µg/mL; in assay [2] it was 0.0423 µg/mL; in assay [3] it was 0.00108 µg/mL; in assay [4], 4.27 µg/mL; in assay [5] it was over 10 µg/mL; in assay [6], over 10 µg/mL. Also, the “pseudovirus neutralization IC50” value in assay [7] is 0.001 µg/mL.

B4: BD57-077 (protein)
chain 1: QVQLVESGGGVVQTGRSLRLSCAASGFTFSRFAMHWVRQAPGKGLEWVAVISFDGNNKYYADSVKGRFTISRDNSMNALFLQMNSLRAEDTSVYYCAKGSYYGSGSYFNPLPNFDFWGQGTLVTVSS
chain 2: QSVLTQPPSASGTPGQRVTISCSGSTSNIGSNTVNWYQQLPGTAPKLLIYSYNQRPSGVPDRFSGSKSGTSASLAISGLQSEDEADYYCLAWDDSLYAWVFGGGTKLTVL
In the case of B4, the “pseudovirus neutralization IC50” value was 0.0482 µg/mL in assay [1]; 0.0206 µg/mL in assay [2]; 0.00468 µg/mL in assay [3]; over 10 µg/mL in assay [4]; over 10 µg/mL in assay [5]; over 10 µg/mL in assay [6]. Moreover, the “pseudovirus neutralization IC50” value in assay [7] amounted to 0.00568 µg/mL.

B5: BD57-003 (protein)
chain 1: QVRLVESGGGVVQPGRSLRLSCAASGFTFSNYGIHWVRQAPGKGLEWVAVVSYDGSNKYYADSVKGRFTISRDNSKNTLYLQMNSLRTEDTAVYYCAKGLGELLQYYYGVDVWGQGTTVTV
chain 2: DIQMTQSPSSLSASVGDRVTITCRASQSISYYLNWYQQKPGKAPKLLIYDASSLQSGVPSRFSGGGSGTDFTLTISSLQPEDFATYHCQQNYNTPPTFGQGTKLEIK
Consider B5, for which the “pseudovirus neutralization IC50” value was 0.0398 µg/mL in assay [1]; 0.0394 µg/mL in assay [2]; 0.0641 µg/mL in assay [3]; 1.17 µg/mL in assay [4]; 3.95 µg/mL in assay [5]; over 10 µg/mL in assay [6]. In addition, in assay [7], the “pseudovirus neutralization IC50” value came to 0.00205 µg/mL.

B6: BD57-076 (protein)
chain 1: QVQLQESGPGLVRPSGTLSLTCAVSGGSISSIYWWTWVRQPPGKGLEWIGEIFHGGSTNYNPSLKSRVTISVDKSKNQFSLNLSSVTAADTAVYYCASVAQVAVVDYWGQGTLVTVSS
chain 2: QSALTQPASVSGSPGQSITISCTGTSSDVGRYNYISWYQQHPGKAPKLMIYDVSNRPSGVSNRFSGSKSGNTASLTISGLQAEDEADYYCSSYTSSNTPYVFGTGTKVTVL
Regarding B6, the “pseudovirus neutralization IC50” value in assay [1], in assay [2], in assay [3], in assay [4], in assay [5] and in assay [6] was over 10 µg/mL in each case. For the same molecule, in assay [7], the “pseudovirus neutralization IC50” value was over 10 µg/mL.

B7: BD57-018 (protein)
chain 1: EVQLVESGGGLVQPGGSLRLSCAASGIIVSRNYMNWVRQAPGKGLEWVSVLYSGGSTFYADSVKGRFTISRDNSKNTLYLQMNSLRVEDTAVYYCARETTAVAGVGLFFDYWGQGTLVTVSS
chain 2: DIQMTQSPSSLSASVGDRVTITCQASQGISNYLNWYQQKPGKAPKLLIYDASNLQTGVPSRFSGSGSGTYFIFTISSLQPDDIATYYCQHYDNLPTRTFGQGTKVEIK
For B7, the “pseudovirus neutralization IC50” value in assay [1] was 0.0824 µg/mL; in assay [2], 0.141 µg/mL; in assay [3], over 10 µg/mL; in assay [4] it was 0.478 µg/mL; in assay [5], over 10 µg/mL; in assay [6], over 10 µg/mL. Moreover, the “pseudovirus neutralization IC50” value in assay [7] was 0.0164 µg/mL.

B8: BD57-024 (protein)
chain 1: EVQLVESGGGLIQPGGSLRLSCAVSGLTVSSNYMSWVRQAPGKGLEWVSTIFSGGSTFYADSVKGRFTISRDSSKNTLFFQMNSLRAEDTAVYYCARDLGMVGGTDQWGQGTLVTVSS
chain 2: EIVMTQSPATLSVSPGERATLSCRASQSVSSNLAWYQQKPGQAPRLLIYGASTRATGIPARFSGNGSGTEFTLTISSLQSEDFAVYYCQQYNNWPPGYTFGQGTKLEIK
For the molecule B8, the “pseudovirus neutralization IC50” value is 0.0103 µg/mL in assay [1]; 0.00809 µg/mL in assay [2]; 0.00806 µg/mL in assay [3]; 0.00908 µg/mL in assay [4]; over 10 µg/mL in assay [5]; 0.925 µg/mL in assay [6]. Further, the “pseudovirus neutralization IC50” value in assay [7] amounted to 0.00421 µg/mL.

B9: BD57-006 (protein)
chain 1: EVQLLESGGGLVQPGGSLRLSCAASGFTFSNFAMSWVRQAPGKGLEWVSVIYSRGGSSNYADSVKGRFTISRDNSKNTLYLQMNSLRAEDTAVYYCAKLCDSSGYYWVEDAFDIWGQGTMVTVSS
chain 2: QSVLTQPPSASGTPGQRVTISCSGSSSNIGNNYVYWYQQLPGTAPKLLIYKNNERPSGVPDRFSGSKSGTSASLAISGLRSEDEADYYCATWDDSLSGRVFGTGTKVTVL
Regarding B9, the “pseudovirus neutralization IC50” value was 0.00426 µg/mL in assay [1]; 0.00205 µg/mL in assay [2]; 0.00283 µg/mL in assay [3]; over 10 µg/mL in assay [4]; over 10 µg/mL in assay [5]; over 10 µg/mL in assay [6]. Further, the “pseudovirus neutralization IC50” value in assay [7] is 0.001 µg/mL.

B10: BD57-041 (protein)
chain 1: EVQLVESGGGLVQPGRSLRLSCAASGFTFEDYAMHWVRQVSGKGLEWVSGTTWNSGTIGYADSVKGRFIISRDNAKNSLYLQMNSLRVEDTALYYCVKDMYLVEEGIAVAEFAFDIWGQGTVVTVSS
chain 2: SYELTQPPSVSVSPGQTARITCSADALPKKYAYWYQQRPGQAPVLVIYKDSERPSGIPERFSGSSSGTRVTLTISGVQAEDEADYYCQSADSSGTDVVFGGGTKLTVL
Turning to B10, the “pseudovirus neutralization IC50” value in assay [1] is 0.0308 µg/mL; in assay [2], 0.0321 µg/mL; in assay [3], 0.0231 µg/mL; in assay [4] it was 1.75 µg/mL; in assay [5], over 10 µg/mL; in assay [6] it was 0.635 µg/mL. For the same molecule, in assay [7], the “pseudovirus neutralization IC50” value amounted to 0.0285 µg/mL.

B11: BD57-020 (protein)
chain 1: QVQLVESGGGVVQPGRSLRLSCAASGFTFRIYAMHWVRQAPGKGLEWVSVIWNDGTKKNYADSVKGRFTISRDNSQKTLYLQMNSLRAEDTAVYYCAREGIAAGGNSVDAFDIWGQGTTVTVSS
chain 2: DIQMTQSPSSLSASVGDRVTITCRASQSIGMFLNWYQQKPGKAPKVLIYAASTLQGGVPSRFSGSGSGTVFTLTISSLQPEDFAIYYCQQSYGASYTFGQGTKLEIK
In the case of B11, the “pseudovirus neutralization IC50” value in assay [1] was 1.02 µg/mL; in assay [2] it was 1.65 µg/mL; in assay [3], 1.15 µg/mL; in assay [4], 1.64 µg/mL; in assay [5], over 10 µg/mL; in assay [6], over 10 µg/mL. Further, the “pseudovirus neutralization IC50” value in assay [7] is 0.00421 µg/mL.

B12: BD57-017 (protein)
chain 1: QVQLVQSGAEVKKPGSSVKVSCKASGGTFSSYAINWVRQAPGQGLEWMGRIISMFDIANYAQNFQGRVTITADKSTSTAYMELNSLRSEDTAVYYCATTKFFYETGVGYYFDYWGQGTLVTVSS
chain 2: EIVLTQSPGTLSLSPGERATLSCRASQNLSSNYLAWYQQKPGQAPRLLIYGASSRATGIPDRFSGSGSGTDFILTISRLEPEDFAVYYCQQYDTSRTFGQGTKVEIK
With B12, the “pseudovirus neutralization IC50” value is 0.0318 µg/mL in assay [1]; 0.0788 µg/mL in assay [2]; 0.0109 µg/mL in assay [3]; over 10 µg/mL in assay [4]; over 10 µg/mL in assay [5]; over 10 µg/mL in assay [6]. In addition, the “pseudovirus neutralization IC50” value in assay [7] worked out at 0.006 µg/mL.
